{"source": "paper PMC5577569", "about": "“Sensitive Detection of α-Conotoxin GI in Human Plasma Using a Solid-Phase Extraction Column and LC-MS/MS” (2017)", "key": {"[1]": {"experiment": "Stability of GI QC samples in human plasma (SPE LC-MS/MS)", "details": "for RE% (relative error vs nominal), long-term (14 days at −20 °C) / RE% (relative error vs nominal), room temperature (5.25 h) / RE% (relative error vs nominal), freeze-thaw (3-cycles) / Mean concentration founded, room temperature (5.25 h): human plasma; for RE% (relative error vs nominal), long-term (14 days at −20 °C) / RE% (relative error vs nominal), room temperature (5.25 h) / RE% (relative error vs nominal), freeze-thaw (3-cycles) / RE% (relative error vs nominal), autosampler (55 h): n = 6; for RE% (relative error vs nominal), freeze-thaw (3-cycles): three freeze (−20 °C)/thaw cycles; for Mean concentration founded, room temperature (5.25 h) / Mean concentration founded, autosampler (55 h): LC-MS/MS, mean ± SD n = 6; for RE% (relative error vs nominal), autosampler (55 h) / Mean concentration founded, autosampler (55 h): pretreated human plasma sample; for RE% (relative error vs nominal), autosampler (55 h): 4 °C autosampler 55 h; for Mean concentration founded, autosampler (55 h): 4 °C in autosampler 55 h"}, "[2]": {"experiment": "Recovery of GI from human blood into plasma", "details": "human blood spiked 100 ng/mL, 37 °C 10 min, centrifuged 3000 rpm to separate plasma, LC-MS/MS, mean n = 4"}, "[3]": {"experiment": "Stability of GI in human blood", "details": "100 ng/mL, room temperature 3 h vs 0 h, LC-MS/MS, mean ± SD n = 4"}}, "data": [{"smiles": "C[C@@H]1NC(=O)[C@@H]2CCCN2C(=O)[C@H](CC(N)=O)NC(=O)[C@@H]2CSSC[C@@H](C(N)=O)NC(=O)[C@H](CO)NC(=O)[C@H](Cc3ccc(O)cc3)NC(=O)[C@H](Cc3c[nH]cn3)NC(=O)[C@H](CCCNC(=N)N)NC(=O)CNC(=O)[C@H](CSSC[C@H](NC(=O)[C@@H](N)CCC(=O)O)C(=O)N2)NC1=O", "values": [{"measurement": "RE% (relative error vs nominal), long-term (14 days at −20 °C)", "setting": "[1]; QC1 6.0 ng/mL", "value": 3.76, "unit": "%"}, {"measurement": "RE% (relative error vs nominal), room temperature (5.25 h)", "setting": "[1]; QC1 6.0 ng/mL", "value": "−1.77", "unit": "%"}, {"measurement": "RE% (relative error vs nominal), freeze-thaw (3-cycles)", "setting": "[1]; QC1 6.0 ng/mL", "value": "−7.31", "unit": "%"}, {"measurement": "Mean concentration founded, room temperature (5.25 h)", "setting": "[1]; QC1 nominal 6.0 ng/mL", "value": "5.9 ± 0.4", "unit": "ng/mL"}, {"measurement": "RE% (relative error vs nominal), long-term (14 days at −20 °C)", "setting": "[1]; QC2 40.0 ng/mL", "value": 4.95, "unit": "%"}, {"measurement": "RE% (relative error vs nominal), room temperature (5.25 h)", "setting": "[1]; QC2 40.0 ng/mL", "value": "−10.54", "unit": "%"}, {"measurement": "RE% (relative error vs nominal), freeze-thaw (3-cycles)", "setting": "[1]; QC2 40.0 ng/mL", "value": "−4.53", "unit": "%"}, {"measurement": "Mean concentration founded, room temperature (5.25 h)", "setting": "[1]; QC2 nominal 40.0 ng/mL", "value": "35.8 ± 2.5", "unit": "ng/mL"}, {"measurement": "RE% (relative error vs nominal), long-term (14 days at −20 °C)", "setting": "[1]; QC3 225.0 ng/mL", "value": "−1.38", "unit": "%"}, {"measurement": "RE% (relative error vs nominal), room temperature (5.25 h)", "setting": "[1]; QC3 225.0 ng/mL", "value": "−10.87", "unit": "%"}, {"measurement": "RE% (relative error vs nominal), freeze-thaw (3-cycles)", "setting": "[1]; QC3 225.0 ng/mL", "value": "−8.58", "unit": "%"}, {"measurement": "Mean concentration founded, room temperature (5.25 h)", "setting": "[1]; QC3 nominal 225.0 ng/mL", "value": "200.5 ± 5.6", "unit": "ng/mL"}, {"measurement": "RE% (relative error vs nominal), autosampler (55 h)", "setting": "[1]; QC1 6.0 ng/mL", "value": 3.13, "unit": "%"}, {"measurement": "Mean concentration founded, autosampler (55 h)", "setting": "[1]; QC1 nominal 6.0 ng/mL", "value": "6.2 ± 0.6", "unit": "ng/mL"}, {"measurement": "RE% (relative error vs nominal), autosampler (55 h)", "setting": "[1]; QC2 40.0 ng/mL", "value": "−5.49", "unit": "%"}, {"measurement": "Mean concentration founded, autosampler (55 h)", "setting": "[1]; QC2 nominal 40.0 ng/mL", "value": "37.8 ± 4.3", "unit": "ng/mL"}, {"measurement": "RE% (relative error vs nominal), autosampler (55 h)", "setting": "[1]; QC3 225.0 ng/mL", "value": "−9.56", "unit": "%"}, {"measurement": "Mean concentration founded, autosampler (55 h)", "setting": "[1]; QC3 nominal 225.0 ng/mL", "value": "203.5 ± 15.4", "unit": "ng/mL"}, {"measurement": "relative recovery of human blood (amount of analyte in plasma / amount in blood × 100%)", "setting": "[2]", "value": 73.48, "unit": "%"}, {"measurement": "mean ratio of GI samples at room temperature for 3 h to GI samples at 0 h", "setting": "[3]", "value": "103.54 ± 13.09", "unit": "%"}]}]}
